Source: the supplement of paper PMC9931576
Human monoclonal antibodies against the spike receptor-binding domain (heavy:light variable regions). IC50 against pseudoviruses bearing the spike of naturally observed variants; lower = stronger; >10 µg/ml means not reached at the top dose. No active / inactive call. The stated detection limit is 0.0005 µg/ml; values near or below 0.001 µg/ml lie at the floor of the assay.

B1: BD58-0435 (protein)
chain 1: EVQLVESGGGLVQPGGSLRLSCAASGFTVSSNYMSWVRQAPGKGLEWVSVIYSGDGTYYADSVKGRFTISRDHSKNMLYLQMNSLRVDDTAVYYCAIVDYADDDYWGQGTLVTVSS
chain 2: SYELTQPSSVSVSPGQTARITCSGDVLAKKYGRWFQQKPGQAPVQVIYKDSERPSGIPERFSGSSSGTTVTLTISGAQVEDEADYYCYSAADNNWVFGGGTKLTVL
B2: BD58-0468 (protein)
chain 1: EVQLVESGGGVVQPGGSLRLSCAASGFTFDDFAMHWVRQAPGKGLEWVSLISGDGGRTDYADSVKGRFTISRDNSKNSLYLQMNSLRIEDTALYYCAKARIPYSPYHYDTDVWGQGTTVTVSS
chain 2: DIQMTQSPSSLSASVGDRVTITCQASPDISDYLNWYQLKPGKAPKLLIYDASNLETGVPSRFSGSGSGTDFTFTISSLQPEDIATYYCQQYDNLPLTFGQGTRLEIK
B3: BD58-0467 (protein)
chain 1: EAQLVESGGGVVRPGGSLRLSCAGSGFTFDDYGMSWVRQAPGKGLEWVSGINWNGGSTGYADSVKGRFTISRDNAKNSLYLQMNSLRAEDTALYHCASVDYYGSGDDASDIWGQGTMVTVSS
chain 2: EIVLTQSPATLSLSPGERATLSCRASQSVSSYLAWYQQKPGQAPRLLIYDAFNRATGIPARFSGSGSGTDFTLTISSLEPEDFAVYYCQQRSNWPYTFGQGTKLEIK
B4: BD58-0445 (protein)
chain 1: EVQLVESGGGLVQPGGSLRLSCAASGFTFSSYEMNWVRQAPGKGLEWVSYISSSGSTIYYADSVKGRFTISRDNAKNSLYLQMNSLRAEDTAVYYCASSSGPHNYNYGMDVWGQGTTVTVSS
chain 2: QSVLTQPPSASGTPGQRVTISCSGSSSNIGSNYVYWYQQLPGTAPKLLIYRNNQRPSGVPDRFSGSKSGTSASLAISGLRSEDEADYYCAAWDDSLSGLVFGGGTKLTVL
B5: BD58-0469 (protein)
chain 1: EVQLVESGGGLVKPGGSLRLSCAASGFTFSSYTMNWVRQAPGKGLEWVSSISGSRSYIFYADSVKGRFTISRDNAKNSLYLQMNSLRAEDTAVYYCARVRARDTATDYWGQGTLVTVSS
chain 2: QPVLTQPPSASASLGASVTLTCTLSSGYSNYEVDWYQQRPGKGPRFVMRVGTGGIVGSKGDDIPDRFSVLGSGLNRYLTIKNIQEEDESDYHCGADHGSGSNFVWVFGGGTKLTVL

What was measured:
Assay in all cases: pseudovirus neutralization IC50; higher = weaker neutralization
[1] = biological target: SARS-CoV-2 Omicron BA.1 spike pseudovirus
Protocol: (§1)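 Single-round VSV luciferase pseudovirus mixed with antibody dilutions for 1 h and put on Huh-7 cells for about a day; IC50 from the dose curve.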

[2] = biological target: SARS-CoV-2 Omicron BA.2 spike pseudovirus
Protocol: as §1

[3] = biological target: SARS-CoV-2 Omicron BA.2.75 spike pseudovirus
Protocol: as §1

[4] = biological target: SARS-CoV-2 Omicron BA.2.75.2 spike pseudovirus
Protocol: as §1

[5] = biological target: SARS-CoV-2 Omicron BA.5 spike pseudovirus
Protocol: as §1

[6] = biological target: SARS-CoV-2 Omicron BM.1.1.1 spike pseudovirus
Protocol: as §1

[7] = biological target: SARS-CoV-2 Omicron BQ.1.1 spike pseudovirus
Protocol: as §1

[8] = biological target: SARS-CoV-2 Omicron BR.2 spike pseudovirus
Protocol: as §1

[9] = biological target: SARS-CoV-2 Omicron CA.1 spike pseudovirus
Protocol: as §1

[10] = biological target: SARS-CoV-2 Omicron XBB spike pseudovirus
Protocol: as §1

[11] = biological target: SARS-CoV-2 early D614G spike pseudovirus
Protocol: as §1

Binder | pseudovirus neutralization IC50 [1] [µg/mL] | pseudovirus neutralization IC50 [2] [µg/mL] | pseudovirus neutralization IC50 [3] [µg/mL] | pseudovirus neutralization IC50 [4] [µg/mL] | pseudovirus neutralization IC50 [5] [µg/mL] | pseudovirus neutralization IC50 [6] [µg/mL] | pseudovirus neutralization IC50 [7] [µg/mL] | pseudovirus neutralization IC50 [8] [µg/mL] | pseudovirus neutralization IC50 [9] [µg/mL] | pseudovirus neutralization IC50 [10] [µg/mL] | pseudovirus neutralization IC50 [11] [µg/mL]
B1 | 0.0571 | 0.0221 | > 10 | > 10 | > 10 | > 10 | > 10 | > 10 | > 10 | > 10 | > 10
B2 | 0.00191 | 0.00117 | > 10 | > 10 | > 10 | > 10 | > 10 | > 10 | > 10 | > 10 | > 10
B3 | 0.185 | 0.00456 | 0.895 | > 10 | 0.00309 | > 10 | 0.04 | > 10 | > 10 | > 10 | > 10
B4 | 0.171 | 0.0573 | > 10 | > 10 | > 10 | > 10 | > 10 | > 10 | > 10 | > 10 | > 10
B5 | 0.00573 | 0.0271 | 0.0141 | > 10 | > 10 | > 10 | > 10 | > 10 | > 10 | > 10 | > 10
